Data as given in PubChem BioAssay AID624099 (ICCB-Longwood, 2012).
This is an unselected part of about 21,000 reagents tested. In the full data, 497 (2.4%) are marked active. 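Higher z means weaker E2 silencing; only reporter increases were scored, and knock-downs that hurt cell survival may mask genuine repressor factors.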 A number with no mark means an inactive call.

- Screen: 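Human genes that papillomavirus E2 requires to repress the HPV18 LCR promoter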 (primary screen)
- System: human C33A cervical carcinoma cells (HPV-negative) stably expressing BPV1 E2 and an HPV18 LCR luciferase reporter
- Reagent: siRNA pool against human genes, 40 nM
- Time to read-out: 72 h
- Measured: 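Per-well luciferase luminescence, z-scored on each plate against the plate mean and SD with control wells left out, then averaged across three replicate plates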
- Reading the numbers: mean z-score and z-score: higher = stronger reporter signal, weaker E2 silencing
- Call rule: 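Hit if mean z-score reaches 2 and two or more of three replicate z-scores also reach 2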

ZNF367: mean z-score = 0.02; z-score, replicate A = -0.22; z-score, replicate B = 0.13; z-score, replicate C = 0.16
SLC35B4: mean z-score = -0.93; z-score, replicate A = -1.15; z-score, replicate B = -1.06; z-score, replicate C = -0.57
LINC00941: mean z-score = -0.37; z-score, replicate A = -0.53; z-score, replicate B = -0.56; z-score, replicate C = -0.01
WWTR1: mean z-score = 0.97; z-score, replicate A = 1.09; z-score, replicate B = 0.66; z-score, replicate C = 1.15
LOC401188 (retired record): mean z-score = 0.79; z-score, replicate A = 0.36; z-score, replicate B = 0.98; z-score, replicate C = 1.03
IFT74: mean z-score = 0.49; z-score, replicate A = 0.64; z-score, replicate B = 0.59; z-score, replicate C = 0.23
CSRNP3: mean z-score = 0.2; z-score, replicate A = -0.13; z-score, replicate B = 0.31; z-score, replicate C = 0.42
GLT8D1: mean z-score = -0.3; z-score, replicate A = -0.41; z-score, replicate B = -0.36; z-score, replicate C = -0.15
NABP1: mean z-score = 0.7; z-score, replicate A = 0.66; z-score, replicate B = 0.71; z-score, replicate C = 0.71
RBM19: mean z-score = -0.9; z-score, replicate A = -0.92; z-score, replicate B = -1; z-score, replicate C = -0.79
LOC391241 (retired record): mean z-score = -0.98; z-score, replicate A = -0.88; z-score, replicate B = -0.93; z-score, replicate C = -1.14

Part of the list above, showing only “z-score, replicate C”.
IFT74 = 0.23
CSRNP3 = 0.42
GLT8D1 = -0.15

Further entries follow.
LAG3: mean z-score = 1.11; z-score, replicate A = 1.25; z-score, replicate B = 0.87; z-score, replicate C = 1.2
SAXO2: mean z-score = 0.66; z-score, replicate A = 0.74; z-score, replicate B = 0.2; z-score, replicate C = 1.04
CCNJL: mean z-score = 0.25; z-score, replicate A = 0.1; z-score, replicate B = 0.12; z-score, replicate C = 0.52
FOXI1: mean z-score = -0.17; z-score, replicate A = -0.18; z-score, replicate B = 0.16; z-score, replicate C = -0.48
TMEM167A: mean z-score = -0.71; z-score, replicate A = -0.59; z-score, replicate B = -1; z-score, replicate C = -0.55
BMX: mean z-score = 0.17; z-score, replicate A = 0.13; z-score, replicate B = 0.32; z-score, replicate C = 0.07
TTC29: mean z-score = 0.29; z-score, replicate A = 0.5; z-score, replicate B = -0.01; z-score, replicate C = 0.38
TMEM26: mean z-score = -0.47; z-score, replicate A = -0.86; z-score, replicate B = -0.27; z-score, replicate C = -0.29
RIC8B: mean z-score = 0.82; z-score, replicate A = 1.12; z-score, replicate B = 0.95; z-score, replicate C = 0.4
ERAL1: mean z-score = -1.5; z-score, replicate A = -1.14; z-score, replicate B = -1.61; z-score, replicate C = -1.76
